This test has as its system pathogenic fungus present in the test tube water. Nature of the test: Portulaca resistance to pathogenic fungus induced by picolinic acid (FIG. 31). As to conditions: plants continuously exposed to 6 mM PA, 10 days.

Turning to `O=C(O)c1ccccn1` [picolinic acid, 2-pyridine carboxylic acid], the root system result is listed as “profuse root system”.

The record behind these values is patent US20090241222A1, “TANDEM REAPEAT DNA CONSTRUCTS PRODUCING PROTEINS THAT ATTACK PLANT PATHOGENIC VIRUSES, FUNGI, AND BACTERIA BY DISRUPTING TRANSCRIPTION FACTORS ESSENTIAL FOR REPLICATION THEREOF IN PLANTS” (priority 2008, published 2009).
